Values of other authors, collected in publication PMC4885069.
Read-outs that look alike come from different tables or passages of the source.

Amino acid sequences for entries named in this document (tags omitted). Residues count along the entry.
UniProt Q496J9, 456-574: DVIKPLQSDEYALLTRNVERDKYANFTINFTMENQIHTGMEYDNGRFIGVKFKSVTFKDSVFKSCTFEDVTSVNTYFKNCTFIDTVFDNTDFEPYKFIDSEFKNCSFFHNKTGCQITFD
UniProt Q496J9, 529-579: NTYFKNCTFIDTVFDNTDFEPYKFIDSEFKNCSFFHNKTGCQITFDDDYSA

Assays:
Conditions in all cases: cited from earlier work
[1] = molecular target: SV2C 456-574 (Homo sapiens) (UniProt Q496J9)
[2] = molecular target: SV2C 529-579 (Homo sapiens) (UniProt Q496J9); assay: SPR
[3] = molecular target: SV2C 529-579 (Homo sapiens) (UniProt Q496J9)

BoNT/A HC (from UniProt P0DPI1)
Kd [1]: 260 nM | Kd [2]: 96.2 nM | Kd [3]: 105 nM
